A mixed list of measured activities; the numbers were collected in NIAID ChemDB.

Shared fields: whole-cell or culture tests; agent: Cryptococcus neoformans; endpoint: MIC

Conditions beyond the fields shown may differ between rows.

compound | strain or isolate | conditions | result
CCCSc1ccc2nc(NC(=O)OC)[nH]c2c1 | 93-219 | 48 h | ≤0.6 µg/mL
O=c1c2cc(O)ccc2oc2cc(O)cc(O)c12 | - | - | >25 µg/mL
C[C@@H](SC1COC(/C=C/C=C/c2ccc(C#N)cc2F)OC1)[C@](O)(Cn1cncn1)c1ccc(F)cc1F | TIMM0362 | - | 0.016 µg/mL
COc1cc(O)c2c(=O)c3ccc(O)c(OC)c3oc2c1 | - | - | >25 µg/mL
CCn1cc(C(=O)O)c(=O)c2cc(F)c(N3CCN(CN4C(=O)/C(=N\c5ncc(Cc6cc(OC)c(OC)c(OC)c6)c(N)n5)c5ccccc54)CC3)cc21 | - | - | 2.44 µg/mL
COc1ccccc1-c1c(C#N)c(OC)nc2c1CSc1ccccc1-2 | Farwania | - | 25 µg/mL
Cc1ccc(C(Cc2ccc([N+](=O)[O-])cc2)n2ccnc2)s1 | - | - | 9.4 µM
CCn1cc(C(=O)O)c(=O)c2cc(F)c(N3CCN(CN4C(=O)C(=Nc5ccc(S(=O)(=O)Nc6ncccn6)cc5)c5cc(Br)ccc54)CC3)cc21 | - | - | 2.44 µg/mL
Cn1cccc1C(Cc1ccc([N+](=O)[O-])cc1)n1ccnc1 | - | - | 300 µM
O=c1c2cccc(O)c2oc2cccc(O)c12 | - | - | >25 µg/mL
C/C(=C\C(=O)CCCCCCCCC(=O)O)C[C@@H]1OC[C@H](C[C@H]2O[C@H]2[C@@H](C)[C@H](C)O)[C@@H](O)[C@H]1O | - | - | 250 µg/mL
Clc1ccc(CC(c2cccs2)n2ccnc2)c(Cl)c1 | - | - | 4.7 µM
CCCCCCCCC(Cn1ccnc1)c1ccc(Cl)cc1 | - | - | <1 µg/mL
OC(Cn1cncn1)(Cn1cncn1)c1ccc(F)cc1F | ATCC 90113 | - | 0.125 µg/mL
CCCSc1nc(Cl)c(C#N)c(-c2ccco2)n1 | - | - | >100 µg/mL
CC(C)C(=N)CCC=C1CO[C@@](Cn2ccnc2)(c2ccc(F)cc2F)C1 | IFM.40092 | - | 3.14 µg/mL
Cn1cccc1C(Cc1ccc(N)cc1)n1ccnc1 | - | - | >300 µM
COc1cc(C2C(C#N)=C(N)OC3=C2CSc2ccccc23)ccc1O | 25 | - | 3 µg/mL
CCCC(Cn1ccnc1)c1ccc(Cl)cc1Cl | - | - | <1 µg/mL
CC[C@@H]1OC(=O)[C@H](C)C(=O)C(O)(CO)C/C(SC)=C/[C@@H](C)Cc2cccc1c2 | ATCC90112 | - | >64 µg/mL
O=C(O)c1ccc(O)c(O)c1 | - | - | >25 µg/mL
CC(C)C(=O)CCC[C@@H]1CO[C@@](Cn2cccc2)(c2ccc(F)cc2F)C1 | B42419 | - | >100 µg/mL
CCCC(Cn1ccnc1)c1ccc(Cl)cc1 | - | - | 10 µg/mL
Cc1ccc(C(Cc2ccc(Cl)cc2)n2ccnc2)s1 | - | - | 4.7 µM
CC(C)=CCc1c(O)ccc2oc3cc(O)cc(O)c3c(=O)c12 | - | - | >25 µg/mL
CC[C@@H]([C@H](C)O)n1ncn(-c2ccc(N3CCN(c4ccc(OC[C@@H]5CO[C@@](Cn6cncn6)(c6ccc(F)cc6F)C5)cc4)CC3)cc2)c1=O | N34 | - | 0.063 µg/mL
CC(C)C(=N)CCC[C@H]1CO[C@@](Cn2ccnc2)(c2ccc(F)cc2F)C1 | IFM.40092 | - | 25 µg/mL
C[C@H]1[C@H](O)[C@@H](C)/C=C/C=C/C=C/C=C/C=C/C=C/C=C/[C@H](O[C@@H]2O[C@H](C)[C@@H](O)[C@H](N)[C@@H]2O)C[C@@H]2O[C@](O)(C[C@@H](O)C[C@@H](O)CC[C@H](O)[C@@H](O)C[C@@H](O)CC(=O)O[C@H]1C)C[C@H](O)[C@H]2C(=O)O | TIMM1855 | - | 0.39 µg/mL
CCCCCCCC(Cn1ccnc1)c1ccc(Cl)cc1Cl | - | - | <1 µg/mL
Clc1ccc(C(Cc2ccccc2)c2c(Cl)nc(N3CCNCC3)nc2Cl)cc1 | - | - | 150 µg/mL
CC(C)C(=O)CCC[C@H]1CO[C@@](Cn2cccc2)(c2ccc(F)cc2F)C1 | A.34144 | - | >100 µg/mL
CCC(C)CC(C)CCCCCCCCC(=O)N[C@H]1C[C@@H](O)[C@H](NCCN)NC(=O)[C@@H]2[C@@H](O)CCN2C(=O)[C@H]([C@H](O)CCN)NC(=O)[C@H]([C@H](O)[C@@H](O)c2ccc(O)cc2)NC(=O)[C@@H]2C[C@@H](O)CN2C(=O)[C@H]([C@@H](C)O)NC1=O | 1 isolates | - | >2 µg/mL
N#CC1=C(N)OC2=C(CSc3ccc(Cl)cc32)C1c1ccccc1 | Farwania | - | 12.5 µg/mL
CCn1cc(C(=O)O)c(=O)c2cc(F)c(N3CCN(CN4C(=O)C(=Nc5ccc(S(=O)(=O)Nc6ncccn6)cc5)c5cc(Cl)ccc54)CC3)cc21 | - | - | 2.44 µg/mL
C=C1C(=O)OCC1COC(=O)CCCCC | ATCC90112 | - | 25 µg/mL
CCCCCCC(Cn1ccnc1)c1ccc(Br)cc1 | - | - | <1 µg/mL
O=c1c2ccc(O)cc2oc2cccc(O)c12 | - | - | >25 µg/mL
CC(C)C(=O)CCC[C@@H]1CO[C@@](Cn2ccnc2)(c2ccc(F)cc2F)C1 | A.34144 | - | 0.78 µg/mL
CCC(C)/C=C(C)/C=C/C=C(\C)CC(C)CC(C)CC(/C=C(C)/C=C/C(O)C(C)(C)c1cc(O)c([C@@H]2O[C@H](CO)C[C@H](O)[C@H]2O)c(=O)o1)CO | M9010 | - | 6.2 µg/mL
COc1ccc(-c2c(C#N)c(OC)nc3c2CSc2ccc(Cl)cc2-3)cc1O | 25 | - | 12.5 µg/mL
CCCCCCCCCCCCCC[C@@H]1CCCN1C | IP960-67 | - | 6.25 µg/mL
CCn1cc(C(=O)O)c(=O)c2cc(F)c(N3CCNCC3)cc21 | - | - | 4.88 µg/mL
CCCSc1nc(Cl)c(C#N)c(-c2cccc(F)c2)n1 | - | - | >100 µg/mL
CC1=C2[C@@H](OC(=O)/C=C/c3ccccc3)[C@H](C(C)C)CC[C@]2(C)[C@@H](O)CC1=O | CECT1075 | - | 8 µg/mL
C[C@H]1N(C(=O)c2ccc(C(F)(F)F)cc2)C[C@@H](O)O[C@@]1(Cn1cncn1)c1ccc(F)cc1F | Isolate 4 | - | 8 µg/mL
COC12C=CC(=O)C=C1C(=O)c1ccccc1O2 | ATCC90112 | - | 15.6 µg/mL
COc1cc(O)c2c(c1)C(=O)c1c(cc3c(c1O)-c1c(cc(C)c(C(=O)NC(C)C(=O)O)c1O)[C@H](OC1OC(C)C(N(C)C)C(OC4OCC(O)C(O)C4O)C1O)[C@H]3O)C2=O | D49 | - | 0.8 µg/mL
CCn1cc(C(=O)O)c(=O)c2cc(F)c(N3CCN(CN4C(=O)C(=Nc5ccc(S(=O)(=O)Nc6ncnc(OC)c6OC)cc5)c5ccccc54)CC3)cc21 | - | - | 1.22 µg/mL
COc1cnc2c3c(nccc13)C(=O)c1ccccc1-2 | ATCC 32264 | - | 0.2 µg/mL
C=C1CC[C@@H]2C(C)(C)CCC[C@@]2(C)[C@@H]1C/C=C/C(C=O)CC=O | ATCC 90113 | - | 20 µg/mL
CCCC(C)C(Cn1ccnc1)c1ccc(Cl)cc1Cl | - | - | <1 µg/mL
COc1ccc(-c2c(C#N)c(OC)nc3c2CSc2ccc(OC)cc2-3)cc1 | 93/V | - | 100 µg/mL
CCCCCOc1ccc(-c2cc(-c3ccc(C(=O)N[C@H]4C[C@@H](O)[C@@H](O)NC(=O)[C@@H]5[C@@H](O)[C@@H](C)CN5C(=O)[C@H]([C@H](O)CC(N)=O)NC(=O)[C@H]([C@H](O)[C@@H](O)c5ccc(O)c(OS(=O)(=O)O)c5)NC(=O)[C@@H]5C[C@@H](O)CN5C(=O)[C@H]([C@@H](C)O)NC4=O)cc3)no2)cc1 | FMR 8408 | - | 64 µg/mL
N=C(N)c1ccc2nc(-c3ccc(-c4nc5ccc(C(=N)N)cc5[nH]4)[nH]3)[nH]c2c1 | H99 | - | 0.78 µg/mL
C[C@@H](c1ncncc1F)[C@](O)(Cn1cncn1)c1ccc(F)cc1F | ATCC 24067 | - | 0.015 µg/mL
COc1ccc(-c2c(C#N)c(OC)nc3c2CSc2ccccc2-3)cc1OC | 25 | - | 6 µg/mL
COc1c(O)ccc2c(=O)c3cccc(O)c3oc12 | - | - | >25 µg/mL
Cc1cc(O)c2c(c1)C(=O)c1cccc(O)c1C2=O | - | - | 50 µg/mL
COc1ccc(C2C(C#N)=C(N)OC3=C2CSc2ccccc23)cc1OC | Farwania | - | 12.5 µg/mL
CCC(C)CC(C)CCCCCCCCC(=O)N[C@H]1C[C@@H](O)[C@H](NCCN)NC(=O)[C@@H]2[C@@H](O)CCN2C(=O)[C@H]([C@H](O)CCN)NC(=O)[C@H]([C@H](O)[C@@H](O)c2ccc(O)cc2)NC(=O)[C@@H]2C[C@@H](O)CN2C(=O)[C@H]([C@@H](C)O)NC1=O | 19 isolates | - | 1 µg/mL

Again, the opening 9 rows:

CCCSc1ccc2nc(NC(=O)OC)[nH]c2c1 ; strain or isolate: 93-219 ; conditions: 48 h ; result: ≤0.6 µg/mL
O=c1c2cc(O)ccc2oc2cc(O)cc(O)c12 ; result: >25 µg/mL
C[C@@H](SC1COC(/C=C/C=C/c2ccc(C#N)cc2F)OC1)[C@](O)(Cn1cncn1)c1ccc(F)cc1F ; strain or isolate: TIMM0362 ; result: 0.016 µg/mL
COc1cc(O)c2c(=O)c3ccc(O)c(OC)c3oc2c1 ; result: >25 µg/mL
CCn1cc(C(=O)O)c(=O)c2cc(F)c(N3CCN(CN4C(=O)/C(=N\c5ncc(Cc6cc(OC)c(OC)c(OC)c6)c(N)n5)c5ccccc54)CC3)cc21 ; result: 2.44 µg/mL
COc1ccccc1-c1c(C#N)c(OC)nc2c1CSc1ccccc1-2 ; strain or isolate: Farwania ; result: 25 µg/mL
Cc1ccc(C(Cc2ccc([N+](=O)[O-])cc2)n2ccnc2)s1 ; result: 9.4 µM
CCn1cc(C(=O)O)c(=O)c2cc(F)c(N3CCN(CN4C(=O)C(=Nc5ccc(S(=O)(=O)Nc6ncccn6)cc5)c5cc(Br)ccc54)CC3)cc21 ; result: 2.44 µg/mL
Cn1cccc1C(Cc1ccc([N+](=O)[O-])cc1)n1ccnc1 ; result: 300 µM

Blank or dashed fields: not listed here.